Results on one molecule are retold here after ChEMBL document CHEMBL2163206, “New nitrogen containing substituents at the indole-2-carboxamide yield high potent and broad spectrum indolylarylsulfone HIV-1 non-nucleoside reverse transcriptase inhibitors” (J Med Chem, 2012).

The test system of the assay is Human immunodeficiency virus type 1 reverse transcriptase (Human immunodeficiency virus 1), Q72547 [L100I]. Description: Potency index, ratio of IC50 for nevirapine to IC50 for compound against HIV1 reverse transcriptase L100I mutant RNA-dependent DNA polymerase activity using poly(rA)/oligo(dT)10:1 and [3H]-dTTP substrate.

Consider `Cc1cc(C)cc(S(=O)(=O)c2c(C(=O)NCc3cccnc3)[nH]c3ccc(Cl)cc23)c1`, for which the Ratio IC50 is > 1000.
